# Like-named read-outs stand apart in the source and are kept apart here.
# Tested on: E. granulosus PSCs
Compound,mortality (0.5 µM) [%],mortality (2 µM) [%],mortality (10 µM) [%],mortality (50 µM) [%],also measured
CC(=O)[O][Hg][c]1cc(C(C)(C)CC(C)(C)C)ccc1O [ACETOMEROCTOL],0,0,70,100,
CC(=O)OC[C@H]1O[C@@H]([S-])[C@H](OC(C)=O)[C@@H](OC(C)=O)[C@@H]1OC(C)=O.CCP(CC)CC.[Au+] [Auranofin],0,0,100,100,
C1C[S][Bi-]2([S]1)[S]CC[S]2 [Bismuth ethanedithiol],0,0,100,100,
Elaiophylin,,,,,"Anti-echinicoccus activity, Dose confirmaiton 0.5uM: 0; Anti-echinicoccus activity, Dose confirmaiton 2uM: 0; Anti-echinicoccus activity, Dose confirmaiton 10uM: 100; Anti-echinicoccus activity, Dose confirmaiton 50uM: 100; Anti-echinicoccus activity, Initiate hits 50uM: 100"
MI-2 [MI-2 (MALT1 inhibitor)],,,,,"Anti-echinicoccus activity, Initiate hits 50uM (primary screen, 50 μM, PSCs, 3-day incubation, PI staining (death rate of PSCs)): 100; Anti-echinicoccus activity, Dose confirmaiton 0.5uM (second-stage dose-response, 0.5 μM, PSCs): 0; Anti-echinicoccus activity, Dose confirmaiton 2uM (second-stage dose-response, 2 μM, PSCs): 0; Anti-echinicoccus activity, Dose confirmaiton 10uM (second-stage dose-response, 10 μM, PSCs): 100; Anti-echinicoccus activity, Dose confirmaiton 50uM (second-stage dose-response, 50 μM, PSCs): 100"
incyclinide,0,0,0,100,
ispinesib mesylate,0,0,0,100,
